This note sets out measurements from publication PMC5517516.

The subject of this series is CC(=O)N[C@H]1[C@H]([C@H](O)[C@H](O)CO)O[C@](OP(=O)(O)OC[C@H]2O[C@@H](n3ccc(N)nc3=O)[C@H](O)[C@@H]2O)(C(=O)O)C[C@@H]1O. In words: purified protein. As to conditions: 0.3 mg/mL colominic acid acceptor, 50 mM HEPES pH 7.0, 50 mM KCl, 20 mM MgCl2, 37 °C.

Regarding “MhPST (Δ20MhPST) (Mannheimia haemolytica; E152A/K68A/K69A)”, the Michaelis constant (Km) was found to be 1080 ± 50 µM, the turnover number (kcat) came to 0.39 s⁻¹ and the kcat/Km worked out at 359 M⁻¹ s⁻¹.
For “MhPST (Δ20MhPST) (Mannheimia haemolytica; K68A/K69A/R259A)” the same measures were 2080 ± 270 µM, 0.12 s⁻¹ and 56 M⁻¹ s⁻¹.
On to “MhPST (Δ20MhPST) (Mannheimia haemolytica; K68A/K69A/Q41A)”, for which the Km came out at 960 ± 130 µM, the kcat is 2.23 s⁻¹ and the specificity constant (kcat/Km) was found to be 2320 M⁻¹ s⁻¹.
For “MhPST (Δ20MhPST) (Mannheimia haemolytica; H291A/K68A/K69A)” the same measures were 4360 ± 240 µM, 1.83 s⁻¹ and 420 M⁻¹ s⁻¹.
For “MhPST (Δ20MhPST) (Mannheimia haemolytica; K293A/K68A/K69A)”, the Km came to 260 ± 40 µM, the kcat came to 0.14 s⁻¹ and the kcat/Km came out at 515 M⁻¹ s⁻¹.
For “MhPST (Δ20MhPST) (Mannheimia haemolytica; K68A/K69A)”, the Km was 600 ± 30 µM, the kcat turned out to be 70.3 s⁻¹ and the specificity constant (kcat/Km) came to 117000 M⁻¹ s⁻¹.
Turning to “MhPST (Δ20MhPST) (Mannheimia haemolytica; K68A/K69A/Q44A)”, the Km worked out at 340 ± 30 µM, the kcat stood at 1.16 s⁻¹ and the kcat/Km amounted to 3400 M⁻¹ s⁻¹.

For orientation: Km means the concentration of substrate that gives half-maximal velocity. The term kcat denotes the number of substrate molecules converted per active site and unit of time at saturation. The kcat/Km is the turnover number divided by the Michaelis constant.
